According to paper PMC6208970, “Linking cytochrome P450 enzymes from Mycobacterium tuberculosis to their cognate ferredoxin partners” (Applied Microbiology and Biotechnology, 2018):

What was measured:
Experiment in all cases: purified protein
[1] = tested on: NC(=O)C1=CN([C@@H]2O[C@H](COP(=O)(O)OP(=O)(O)OC[C@H]3O[C@@H](n4cnc5c(N)ncnc54)[C@H](O)[C@@H]3O)[C@@H](O)[C@H]2O)C=CC1; conditions: pH 7.4; varied: cofactor
[2] = tested on: NC(=O)C1=CN([C@@H]2O[C@H](COP(=O)(O)OP(=O)(O)OC[C@H]3O[C@@H](n4cnc5c(N)ncnc54)[C@H](OP(=O)(O)O)[C@@H]3O)[C@@H](O)[C@H]2O)C=CC1; conditions: pH 7.4; varied: cofactor
[3] = tested on: O=C1C(Cl)=CC(=Nc2ccc(O)cc2)C=C1Cl; conditions: pH 7.4

Substance | Km [1] [µM] | Km [2] [µM] | Km [3] [µM]
FprA (Mycobacterium tuberculosis H37Rv) | 85 ± 1 | 1.2 | 
FdrA (Mycobacterium tuberculosis H37Rv) | 92 |  | 24 ± 1
